Results of unrelated studies side by side (data: NIAID ChemDB).

All rows: whole-cell or culture tests; agent: HIV-1

ECn is the concentration giving n% inhibition of infection, replication or growth. An empty or dashed field is not shown. Lines come from different laboratories, so protocols vary.

structure	method	read-out	mutations	cell line	strain or isolate	result
O=C1N(Cc2ccc3[nH]c(=O)oc3c2)[C@H](Cc2ccccc2)[C@H](O)[C@@H](O)[C@@H](Cc2ccccc2)N1Cc1ccc2[nH]c(=O)oc2c1		EC50		MT-2	RF	<0.04 µM
CC(C)[C@H](NC(=O)N(C)Cc1ccccn1)C(=O)N[C@@H](Cc1ccccc1)[C@H](O)[C@H](O)[C@H](Cc1ccccc1)NC(=O)[C@@H](NC(=O)N(C)Cc1ccccn1)C(C)C	cytopathic effect / XTT	EC50		CEM	RF	0.05 µM
Cc1cn([C@H]2C[C@H](N=[N+]=[N-])[C@@H](CO)O2)c(=O)[nH]c1=O	β-galactosidase	EC50	WT	HeLa CD4	NL4-3	0.043 µM
COc1cc(C[C@H](C)[C@H](C)Cc2ccc(O)c(O)c2)ccc1O	p24	EC50		PBMC	JR-CSF	0.06 µg/mL
O=C1N(Cc2ccc3c(c2)NS(=O)(=O)N3)[C@H](Cc2ccccc2)[C@H](O)[C@@H](O)[C@@H](Cc2ccccc2)N1Cc1ccc2c(c1)NS(=O)(=O)N2		EC50		MT-2	RF	<32 µM
C=CCc1cc2c(c(CC=C(C)C)c1O)OCO2	syncytia	EC50		C8166	IIIB	62.2 µM
Cc1cn([C@@H]2O[C@H](CO[Si](C)(C)C(C)(C)C)C3(OS(=O)(=O)C=C3N)[C@H]2O[Si](C)(C)C(C)(C)C)c(=O)n(C)c1=O	syncytia	EC50	RT-L100I Y188H	CEM	IIIB TIBO R82913 STR-B22 (RT L100I Y188H)	≥50 µM
Nc1nc2ccc(CN3C(=O)N(Cc4ccc5nc(N)[nH]c5c4)[C@H](Cc4ccccc4)[C@H](O)[C@@H](O)[C@H]3Cc3ccccc3)cc2[nH]1		EC50		MT-2	RF	<8.1 µM
Cc1nc2ccccc2n1S(=O)(=O)c1cc(Br)ccc1Br	β-galactosidase	EC50	41-215 (AZT-resistant)	HeLa CD4	NL4.3-XCS	0.914 µM
C=CCc1cc(O)c2c(c1)OCO2	syncytia	EC50		C8166	IIIB	102.2 µM
O=C1N(Cc2ccc3scnc3c2)[C@H](Cc2ccccc2)[C@H](O)[C@@H](O)[C@@H](Cc2ccccc2)N1Cc1ccc2scnc2c1		EC50		MT-2	RF	<3.2 µM
N=C1Sc2cc3ccccc3cc2C2=NCCCN12	MTT	EC50		MT-4	IIIB	5.7 µM
Cc1ccnc2c1NC(=O)c1cccnc1N2C1CC1	syncytia	EC50	RT-L100I Y188H	CEM	IIIB TIBO R82913 STR-B22 (RT L100I Y188H)	1.4 µM
N=C1Sc2ccc(C3CC3)cc2C2=NCCCN12	MTT	EC50		MT-4	IIIB	3.6 µM
Cc1ccnc2c1NC(=O)c1cccnc1N2C1CC1	cytopathic effect / XTT	EC50		PBMC	IIIB	0.056 µM
CC(C)(C)NC(=O)[C@@H]1C[C@@H]2CCCC[C@@H]2CN1C[C@@H](O)[C@H](Cc1ccccc1)NC(=O)[C@H](CC(N)=O)NC(=O)c1ccc2ccccc2n1	cytopathic effect / XTT	EC50		CEM	RF	0.004 µM
N=C1Sc2cccc(F)c2C2=NCCCN12	MTT	EC50		MT-4	IIIB	3.7 µM
O=C1N(Cc2ccc3oc(=O)[nH]c3c2)[C@H](Cc2ccccc2)[C@H](O)[C@@H](O)[C@@H](Cc2ccccc2)N1Cc1ccc2oc(=O)[nH]c2c1		EC50		MT-2	RF	<0.579 µM
Cc1cn([C@H]2C[C@H](N=[N+]=[N-])[C@@H](CO)O2)c(=O)[nH]c1=O	plaque count	EC50		HT4 + HT4-6C	A036B (RT-WT)	0.01 µM
CC(C)=CCN1Cc2cccc3[nH]c(=S)n(c23)C[C@@H]1C	cytopathic effect / XTT	EC50		CEM + CEM-SS	IIIB	0.1 µM
CC(C)(C)NC(=O)[C@@H]1CN(Cc2cccnc2)CCN1C[C@@H](O)C[C@@H](Cc1ccccc1)C(=O)N[C@H]1c2ccccc2C[C@H]1O	RT activity	EC90		PBL	LAI	0.034 µM
CC1=C(C(=O)O[C@]23OCC4(C)C2(C)C(=O)CC2([C@H](C)CC[C@@]24O)[C@H]3O)CCC1	syncytia	EC50		C8166	IIIB	41.8 µM
CCCc1cc(=O)oc2c3c(c4c(c12)OC(C)(C)C=C4)O[C@@H](C)[C@H](C)[C@@H]3O	cytopathic effect / XTT	EC50		CEM + CEM-SS	RF	0.7 µM
O=C1N(Cc2ccc3cn[nH]c3c2)[C@H](Cc2ccccc2)[C@H](O)[C@@H](O)[C@@H](Cc2ccccc2)N1Cc1ccc2cn[nH]c2c1		EC50		MT-2	RF	<0.049 µM
O=[N+]([O-])c1ccccc1S(=O)(=O)c1ccccc1	cytopathic effect / XTT	EC50		Macrophage	IIIB	0.91 µM
Cc1ccnc2c1NC(=O)c1cccnc1N2C1CC1	XTT	EC50	RT-Y181C	CEM + CEM-SS	Nevirapine-resistant (RT Y181C)	>38 µM
O=S1(c2ccccc2)=NC(=S)Nc2ccccc21	cytopathic effect / XTT	EC50		Macrophage	IIIB	0.66 µM
Cc1cn([C@H]2C[C@H](N=[N+]=[N-])[C@@H](CO)O2)c(=O)[nH]c1=O	syncytia	EC50	RT-L100I E138K	CEM	IIIB TIBO R82913 STR-B02 (RT L100I E138K)	0.035 µM
CC(C)CN(C[C@@H](O)[C@H](Cc1ccccc1)NC(=O)[C@H](CC(N)=O)NC(=O)c1ccc2ccccc2n1)C(=O)NC(C)(C)C	RT activity	EC50		PBL	LAI	0.15 µM
CCOCn1c(Cc2cc(C)cc(C)c2)c(CC)c(=O)[nH]c1=O	syncytia	EC50		CEM	IIIB	0.001 µM
C=CCC1=C[C@@]2(CC=C(C)C)OCOC2=CC1=O	syncytia	EC50		C8166	IIIB	16 µM
N#CC1C=Cc2ccccc2C1C(=O)/C=C/c1ccccc1	β-galactosidase	EC50	WT	HeLa CD4	NL4-3	0.172 µM
CC(C)=CCN1Cc2cc(Cl)cc3[nH]c(=S)n(c23)C[C@@H]1C	syncytia	EC50	RT-K103N	CEM	IIIB TIBO R82913 STR-2 (RT K103N)	≥5 µM
CC(C)=CCOc1cc(NC(=S)c2ccoc2C)ccc1Cl	XTT	EC50	RT-T139I	CEM + CEM-SS	Calanolide A-resistant (RT T139I)	0.04 µM
C[C@@H]1CC[C@@]2(O)C13CC(=O)C1(C)C2(C)CO[C@]1(OC(=O)c1ccccc1)[C@@H]3O	syncytia	EC50		C8166	IIIB	44 µM
Cc1cn([C@H]2C[C@H](N=[N+]=[N-])[C@@H](CO)O2)c(=O)[nH]c1=O	RT activity	EC50		PBMC	ROJO(SI)	0.1 µM
N=C1Sc2cc(-c3ccco3)ccc2C2=NCCCN12	MTT	EC50		MT-4	IIIB	0.77 µM
CCCc1cc(=O)oc2c3c(c4c(c12)OC(C)(C)C=C4)O[C@H](C)[C@@H](C)[C@@H]3O	XTT	EC50	RT-L74V	CEM + CEM-SS	NL4-3	0.1 µM
Cc1ccnc2c1NC(=O)c1cccnc1N2C1CC1	β-galactosidase	EC50	K103N (NVP)	HeLa CD4	NL4.3-XCS	2.566 µM

A second listing of 2 rows from above:

| structure | method | read-out | mutations | cell line | strain or isolate | result |
|---|---|---|---|---|---|---|
| CCCc1cc(=O)oc2c3c(c4c(c12)OC(C)(C)C=C4)O[C@H](C)[C@@H](C)[C@@H]3O | XTT | EC50 | RT-L74V | CEM + CEM-SS | NL4-3 | 0.1 µM |
| C=CCc1cc(O)c2c(c1)OCO2 | syncytia | EC50 |  | C8166 | IIIB | 102.2 µM |